Measured values taken from US9062118B2 (priority 2006, dated 2015).

Chains of the proteins cited; added tags and fusions are not shown. Lines headed by an entry give the natural chain unless they say otherwise; changes in a name come on top. Residues count along the entry.
UniProt P17658, whole entry, looked up: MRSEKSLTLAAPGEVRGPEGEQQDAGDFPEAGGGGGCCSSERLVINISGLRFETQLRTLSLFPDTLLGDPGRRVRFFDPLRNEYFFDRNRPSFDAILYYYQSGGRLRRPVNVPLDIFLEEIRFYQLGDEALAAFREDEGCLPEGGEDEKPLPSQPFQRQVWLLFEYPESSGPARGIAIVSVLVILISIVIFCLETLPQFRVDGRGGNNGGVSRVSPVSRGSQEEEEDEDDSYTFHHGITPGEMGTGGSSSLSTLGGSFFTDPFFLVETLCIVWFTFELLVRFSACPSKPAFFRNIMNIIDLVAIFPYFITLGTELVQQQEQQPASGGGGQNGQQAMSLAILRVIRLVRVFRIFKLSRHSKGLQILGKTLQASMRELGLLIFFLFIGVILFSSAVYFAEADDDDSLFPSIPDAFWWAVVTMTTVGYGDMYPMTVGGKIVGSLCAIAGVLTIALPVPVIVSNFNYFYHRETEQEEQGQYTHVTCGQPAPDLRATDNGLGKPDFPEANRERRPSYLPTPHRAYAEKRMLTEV
UniProt P02716: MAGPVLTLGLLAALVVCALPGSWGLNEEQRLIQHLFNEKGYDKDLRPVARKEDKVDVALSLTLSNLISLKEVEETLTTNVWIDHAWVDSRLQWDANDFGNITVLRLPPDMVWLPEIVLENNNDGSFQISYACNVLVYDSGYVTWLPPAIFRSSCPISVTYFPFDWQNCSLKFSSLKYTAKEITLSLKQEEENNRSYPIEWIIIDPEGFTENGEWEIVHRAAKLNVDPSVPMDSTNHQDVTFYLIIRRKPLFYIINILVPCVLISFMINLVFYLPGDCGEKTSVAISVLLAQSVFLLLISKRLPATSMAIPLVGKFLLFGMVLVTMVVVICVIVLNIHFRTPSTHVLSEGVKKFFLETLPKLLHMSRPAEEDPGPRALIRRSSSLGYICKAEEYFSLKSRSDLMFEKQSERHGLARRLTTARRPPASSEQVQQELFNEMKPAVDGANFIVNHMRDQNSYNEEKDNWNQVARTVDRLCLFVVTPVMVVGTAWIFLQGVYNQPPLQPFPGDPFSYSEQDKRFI
UniProt P04756: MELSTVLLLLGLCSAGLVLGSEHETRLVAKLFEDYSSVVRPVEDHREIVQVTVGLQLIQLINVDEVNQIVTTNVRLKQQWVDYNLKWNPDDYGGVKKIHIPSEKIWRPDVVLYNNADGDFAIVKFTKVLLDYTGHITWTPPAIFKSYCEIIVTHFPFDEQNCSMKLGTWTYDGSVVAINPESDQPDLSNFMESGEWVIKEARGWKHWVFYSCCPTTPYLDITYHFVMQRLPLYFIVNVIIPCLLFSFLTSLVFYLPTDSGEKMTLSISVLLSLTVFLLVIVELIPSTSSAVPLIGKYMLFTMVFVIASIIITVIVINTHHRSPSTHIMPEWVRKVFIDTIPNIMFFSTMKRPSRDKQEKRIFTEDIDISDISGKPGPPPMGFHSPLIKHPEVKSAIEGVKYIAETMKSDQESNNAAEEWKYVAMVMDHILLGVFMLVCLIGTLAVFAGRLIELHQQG
UniProt P20782: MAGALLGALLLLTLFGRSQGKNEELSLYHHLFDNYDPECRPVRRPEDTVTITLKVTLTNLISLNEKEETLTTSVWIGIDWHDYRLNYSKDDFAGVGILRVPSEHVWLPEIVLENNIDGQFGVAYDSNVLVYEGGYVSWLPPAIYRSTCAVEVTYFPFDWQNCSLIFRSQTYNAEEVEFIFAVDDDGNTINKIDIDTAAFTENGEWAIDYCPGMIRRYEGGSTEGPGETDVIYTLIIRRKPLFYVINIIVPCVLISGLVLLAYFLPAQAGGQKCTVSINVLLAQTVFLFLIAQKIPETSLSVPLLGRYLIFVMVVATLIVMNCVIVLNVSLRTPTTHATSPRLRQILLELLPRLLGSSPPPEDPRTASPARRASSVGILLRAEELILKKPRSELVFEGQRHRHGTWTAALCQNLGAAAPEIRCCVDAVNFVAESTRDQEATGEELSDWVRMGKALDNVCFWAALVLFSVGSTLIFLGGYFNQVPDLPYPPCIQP
UniProt P04757, 26-499 limits assumed: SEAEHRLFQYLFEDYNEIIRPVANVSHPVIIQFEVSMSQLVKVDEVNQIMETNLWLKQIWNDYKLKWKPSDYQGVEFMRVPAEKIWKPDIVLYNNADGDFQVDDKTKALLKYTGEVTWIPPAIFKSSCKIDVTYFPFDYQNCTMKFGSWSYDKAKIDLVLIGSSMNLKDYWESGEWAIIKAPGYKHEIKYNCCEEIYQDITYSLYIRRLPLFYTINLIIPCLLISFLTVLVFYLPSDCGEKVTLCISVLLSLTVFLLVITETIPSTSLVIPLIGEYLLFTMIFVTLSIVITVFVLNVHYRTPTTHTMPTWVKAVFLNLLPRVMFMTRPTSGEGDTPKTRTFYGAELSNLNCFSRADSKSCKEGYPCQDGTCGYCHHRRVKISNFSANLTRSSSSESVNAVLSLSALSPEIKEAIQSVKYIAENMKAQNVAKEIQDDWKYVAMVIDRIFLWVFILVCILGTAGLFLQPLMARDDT
UniProt P12392, 21-495 limits assumed: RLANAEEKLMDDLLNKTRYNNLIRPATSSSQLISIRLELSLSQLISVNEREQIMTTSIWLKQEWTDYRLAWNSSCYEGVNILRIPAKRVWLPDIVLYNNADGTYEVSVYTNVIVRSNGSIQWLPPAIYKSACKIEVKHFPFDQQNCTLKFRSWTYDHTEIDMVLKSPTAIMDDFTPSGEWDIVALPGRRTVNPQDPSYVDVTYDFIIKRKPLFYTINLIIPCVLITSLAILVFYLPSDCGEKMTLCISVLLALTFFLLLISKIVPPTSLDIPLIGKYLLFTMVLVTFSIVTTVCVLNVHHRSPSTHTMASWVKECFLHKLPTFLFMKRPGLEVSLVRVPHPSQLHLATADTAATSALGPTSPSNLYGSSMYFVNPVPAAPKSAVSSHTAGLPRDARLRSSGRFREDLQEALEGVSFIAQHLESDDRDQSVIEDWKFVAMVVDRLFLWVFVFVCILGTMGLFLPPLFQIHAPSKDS

Tests used:
Kv1.6 channel = Kv1.6 channel (Homo sapiens, UniProt P17658)
[1] = biological target: adult mouse muscle nAChR subtype (α1β1εδ) (Mus musculus, UniProt P02716+P04756+P20782); experiment: nAChR assay, voltage clamp of Xenopus oocytes expressing adult muscle subtype; type: cell-based; conditions: for IC50: read-out: IC50 on α1β1εδ subtype of nAChR, SAR study, dose-response plots FIG. 15; for activity relative to pl14a: 10 μM, both folding isomers
[2] = biological target: α3β4 subtype of rat neuronal nAChR (Rattus norvegicus, UniProt P04757+P12392)

Compound	IC50 (Kv1.6 channel)	IC50 [1]	IC50 [2]	activity relative to pl14a [1]
CC[C@H](C)[C@@H]1NC(=O)CNC(=O)[C@H](C)NC(=O)[C@H](CCCNC(=N)N)NC(=O)[C@@H]2CSSC[C@@H](C(=O)N[C@@H](CCCNC(=N)N)C(N)=O)NC(=O)[C@H](Cc3c[nH]cn3)NC(=O)[C@H](CSSC[C@H](NC(=O)[C@@H](NC(=O)[C@H](CCCNC(=N)N)NC(=O)[C@@H]3CCCN3C(=O)[C@H](CCCNC(=N)N)NC(=O)[C@@H]3CCCN3C(=O)[C@@H](N)Cc3ccccc3)[C@@H](C)CC)C(=O)N[C@@H](CC(N)=O)C(=O)N[C@@H](CC(C)C)C(=O)N[C@@H](C)C(=O)N2)NC(=O)[C@H](Cc2ccccc2)NC(=O)[C@@H]2CCCN2C(=O)[C@H](Cc2ccc(O)cc2)NC(=O)[C@H](CCCCN)NC(=O)[C@H](C)NC(=O)CNC1=O	4600 nM	228 nM	3920 nM	–
CC[C@H](C)[C@@H]1NC(=O)CNC(=O)[C@H](C)NC(=O)[C@H](C)NC(=O)[C@@H]2CSSC[C@@H](C(=O)N[C@@H](CCCNC(=N)N)C(N)=O)NC(=O)[C@H](Cc3c[nH]cn3)NC(=O)[C@H](CSSC[C@H](NC(=O)[C@@H](NC(=O)[C@H](CCCNC(=N)N)NC(=O)[C@@H]3CCCN3C(=O)[C@H](CCCNC(=N)N)NC(=O)[C@@H]3CCCN3C(=O)[C@@H](N)Cc3ccccc3)[C@@H](C)CC)C(=O)N[C@@H](CC(N)=O)C(=O)N[C@@H](CC(C)C)C(=O)N[C@@H](C)C(=O)N2)NC(=O)[C@H](Cc2ccccc2)NC(=O)[C@@H]2CCCN2C(=O)[C@H](Cc2ccc(O)cc2)NC(=O)[C@H](CCCCN)NC(=O)[C@H](Cc2c[nH]cn2)NC(=O)CNC1=O	6540 nM	355 nM	3210 nM	–
CC[C@H](C)[C@@H]1NC(=O)CNC(=O)[C@H](C)NC(=O)[C@H](CCCNC(=N)N)NC(=O)[C@@H]2CSSC[C@@H](C(=O)N[C@@H](CCCNC(=N)N)C(N)=O)NC(=O)[C@H](Cc3c[nH]cn3)NC(=O)[C@H](CSSC[C@H](NC(=O)[C@@H](NC(=O)[C@H](CCCNC(=N)N)NC(=O)[C@@H]3CCCN3C(=O)[C@H](CCCNC(=N)N)NC(=O)[C@@H]3CCCN3C(=O)[C@@H](N)Cc3ccccc3)[C@@H](C)CC)C(=O)N[C@@H](CC(N)=O)C(=O)N[C@@H](CC(C)C)C(=O)N[C@@H](C)C(=O)N2)NC(=O)[C@H](C)NC(=O)[C@@H]2CCCN2C(=O)[C@H](Cc2ccc(O)cc2)NC(=O)[C@H](CCCCN)NC(=O)[C@H](Cc2c[nH]cn2)NC(=O)CNC1=O	2410 nM	257 nM	2850 nM	–
CC[C@H](C)[C@@H]1NC(=O)CNC(=O)[C@H](C)NC(=O)[C@H](CCCNC(=N)N)NC(=O)[C@@H]2CSSC[C@@H](C(=O)N[C@@H](CCCNC(=N)N)C(N)=O)NC(=O)[C@H](Cc3c[nH]cn3)NC(=O)[C@H](CSSC[C@H](NC(=O)[C@@H](NC(=O)[C@H](CCCNC(=N)N)NC(=O)[C@@H]3CCCN3C(=O)[C@H](CCCNC(=N)N)NC(=O)[C@@H]3CCCN3C(=O)[C@@H](N)Cc3ccccc3)[C@@H](C)CC)C(=O)N[C@@H](CC(N)=O)C(=O)N[C@@H](C)C(=O)N[C@@H](C)C(=O)N2)NC(=O)[C@H](Cc2ccccc2)NC(=O)[C@@H]2CCCN2C(=O)[C@H](Cc2ccc(O)cc2)NC(=O)[C@H](CCCCN)NC(=O)[C@H](Cc2c[nH]cn2)NC(=O)CNC1=O	2260 nM	434 nM	1360 nM	–
CNLACRAGIGHKYPFCHC	–	–	–	as active as pl14a
CNLACRAGIGHKYPFCHCR	–	–	–	as active as pl14a
CC[C@H](C)[C@H](NC(=O)[C@H](CCCNC(=N)N)NC(=O)[C@@H]1CCCN1C(=O)[C@H](CCCNC(=N)N)NC(=O)[C@@H]1CCCN1C(=O)[C@@H](N)Cc1ccccc1)C(=O)N[C@H]1CSSC[C@@H]2NC(=O)[C@H](Cc3ccccc3)NC(=O)[C@@H]3CCCN3C(=O)[C@H](Cc3ccc(O)cc3)NC(=O)[C@H](CCCCN)NC(=O)[C@H](Cc3c[nH]cn3)NC(=O)CNC(=O)[C@H](C)NC(=O)CNC(=O)[C@H](C)NC(=O)[C@H](CCCNC(=N)N)NC(=O)[C@H](CSSC[C@@H](C(=O)N[C@@H](CCCNC(=N)N)C(N)=O)NC(=O)[C@H](Cc3c[nH]cn3)NC2=O)NC(=O)[C@H](C)NC(=O)[C@H](CC(C)C)NC(=O)[C@H](CC(N)=O)NC1=O	45500 nM	175 nM	1600 nM	–
CC[C@H](C)[C@@H]1NC(=O)CNC(=O)[C@H](C)NC(=O)[C@H](CCCNC(=N)N)NC(=O)[C@@H]2CSSC[C@@H](C(=O)N[C@@H](CCCNC(=N)N)C(N)=O)NC(=O)[C@H](Cc3c[nH]cn3)NC(=O)[C@H](CSSC[C@H](NC(=O)[C@@H](NC(=O)[C@H](CCCNC(=N)N)NC(=O)[C@@H]3CCCN3C(=O)[C@H](CCCNC(=N)N)NC(=O)[C@@H]3CCCN3C(=O)[C@@H](N)Cc3ccccc3)[C@@H](C)CC)C(=O)N[C@@H](CC(N)=O)C(=O)N[C@@H](CC(C)C)C(=O)N[C@@H](C)C(=O)N2)NC(=O)[C@H](Cc2ccccc2)NC(=O)[C@H](C)NC(=O)[C@H](Cc2ccc(O)cc2)NC(=O)[C@H](CCCCN)NC(=O)[C@H](Cc2c[nH]cn2)NC(=O)CNC1=O	2220 nM	240 nM	710 nM	–
